In this assay the target is interleukin 13 receptor α 2 (IL13Rα2) (human) (UniProt Q14627). Description: cell-based or functional assay.

Consider cmIL13 (IL13.E13K-PE4E), for which the IC50, CellTiter-Glo cell viability, 72 h, GBM6 cells (IL-13Rα2-medium) was 0.12 ng/mL; the IC50, CellTiter-Glo cell viability, 72 h, GBM10 cells (IL-13Rα2-high) was 0.58 ng/mL; the IC50, CellTiter-Glo cell viability, 72 h, GBM14 cells (IL-13Rα2-high) was determined as 0.06 ng/mL; the IC50, CellTiter-Glo cell viability, 72 h, GBM39 cells (IL-13Rα2-low) was found to be 53.8 ng/mL. In addition, the IC50, CellTiter-Glo cell viability, 72 h, GBM43 cells (IL-13Rα2-medium) is 9.08 ng/mL; the IC50, CellTiter-Glo cell viability, 72 h, GBM108 cells (IL-13Rα2-low) was determined as 15.7 ng/mL; the IC50, CellTiter-Glo cell viability, 72 h, PED17 cells (IL-13Rα2-high) amounted to 0.02 ng/mL; the IC50, CellTiter-Glo cell viability, 72 h, SF8628-B23 cells (IL-13Rα2-medium) worked out at 0.81 ng/mL. The substance also had an IC50, CellTiter-Glo cell viability, 72 h, SF8628 cells (IL-13Rα2-medium) of 0.1 ng/mL; an IC50, CellTiter-Glo cell viability, 72 h, SU-DIPG XIII-P cells (IL-13Rα2-low) of 10.6 ng/mL; an IC50, CellTiter-Glo cell viability, 72 h, SU-DIPG XVII cells (IL-13Rα2-medium) of 0.75 ng/mL.
